Anti-infective test results gathered from many reports (values: NIAID ChemDB through PubChem).

All rows: tests in culture; organism: Candida albicans; read-out: EC50

Blank or dashed fields: not listed here. Rows are shuffled and stem from different studies. ECn is the concentration giving n% inhibition of infection, replication or growth.

structure | strain or isolate | method | setting | result
Cc1cnc(Nc2ccccc2)nc1Nc1ccccc1 | - | - | - | 9 µg/mL
COc1ccc(C(Cc2ccc(Cl)cc2Cl)C(c2ccc(OC)cc2)n2ccnc2)cc1 | 28 strains | - | - | <256 µg/mL
Cc1cnc(Oc2ccccc2)nc1Oc1ccccc1 | - | - | - | 21.6 µg/mL
C=C(CN1CCOCC1)C(=O)c1ccccc1 | - | - | - | 1.94 µM
COc1ccc(Nc2ncc(C)c(Nc3ccc(OC)cc3)n2)cc1 | - | - | - | 9.6 µg/mL
CC(C(=O)O)N1C(=O)CSC1c1ccccn1 | - | broth dilution | - | 27.14 µM
CCC(C(=O)c1ccc(OC)cc1)c1ccc(OC)cc1 | 28 strains | - | - | >256 µg/mL
O=C(O)C(Cc1ccccc1)N1C(=O)CSC1c1c(Cl)cccc1Cl | - | broth dilution | - | 22.01 µM
C=C(CN(C)C)C(=O)c1ccc(OC)cc1 | - | - | - | 18.11 µM
Cc1cnc(Nc2cccc(Cl)c2)nc1Nc1cccc(Cl)c1 | - | - | - | 1.06 µg/mL
COc1cc(NC(C)CCCNC(=O)CCC(NC(=O)[C@@H](N)CCCN)C(=O)O)c2nc(C(C)(C)C)ccc2c1 | - | broth dilution | - | >20 µg/mL
Cc1cnc(Nc2ccc(Cl)cc2)nc1Nc1ccc(Cl)cc1 | - | - | - | 0.92 µg/mL
COc1cc2ccnc3c2c(c1OC(=O)c1cccc(F)c1F)N(C)C=C3 | - | - | - | >15 µg/mL
O=C(OCC1COC(Cn2ccnc2)(c2ccc(-c3ccccc3)cc2)O1)c1ccccc1 | 44 strains | - | - | 16 µg/mL
COc1ccc(C(=O)C(Cc2ccc(Cl)cc2Cl)c2ccc(Cl)cc2)cc1 | 28 strains | - | - | >256 µg/mL
C=C(CN1CCOCC1)C(=O)c1ccc(Cl)cc1 | - | - | - | 9.18 µM
Cc1ccc(Oc2ncc(C)c(Oc3ccc(C)cc3)n2)cc1 | - | - | - | 18 µg/mL
S=C(S)n1nnc2ccccc21 | clinical isolate CDRI | broth dilution / absorbance | 48 h | >50 µg/mL
OC[C@@H]1CO[C@](Cn2ccnc2)(c2ccc(-c3ccccc3)cc2)O1 | 44 strains | - | - | 128 µg/mL
O=C(O)C(Cc1ccccc1)N1C(=O)CSC1c1ccccc1 | - | broth dilution | - | 78.49 µM
COc1cc(NC(C)CCCNC(=O)CC(NC(=O)[C@@H](N)CCCN=C(N)N)C(=O)O)c2nc(C(C)(C)C)ccc2c1 | - | broth dilution | - | >20 µg/mL
O=C(OCCCc1ccc(O)cc1)c1ccccc1 | - | - | - | 5.36 µg/mL
COc1ccc(C(Cc2ccc(Cl)cc2Cl)C(c2ccc(OC)cc2)n2cnnc2)cc1 | 28 strains | - | - | >256 µg/mL
COc1cc2ccnc3c2c(c1OC(=O)CSc1ccccc1)N(C)C=C3 | - | - | - | >15 µg/mL
Cc1ccc(Oc2ccnc(Oc3ccc(C)cc3)n2)cc1 | - | - | - | 16.8 µg/mL
CC(C(=O)O)N1C(=O)CSC1c1ccc(Cl)cc1 | - | broth dilution | - | 79.61 µM
C=CCc1ccc(OC(=O)/C(C)=C/C)cc1 | ATCC 90028 | - | - | >50 µg/mL
O=c1cn[nH]c(=O)[nH]1 | - | - | - | >100 µg/mL
C[C@H]1[C@H](O)[C@@H](C)/C=C/C=C/C=C/C=C/C=C/C=C/C=C/[C@H](O[C@@H]2O[C@H](C)[C@@H](O)[C@H](N)[C@@H]2O)C[C@@H]2O[C@](O)(C[C@@H](O)C[C@@H](O)CC[C@H](O)[C@@H](O)C[C@@H](O)CC(=O)O[C@H]1C)C[C@H](O)[C@H]2C(=O)O | 33 | broth dilution | - | 2 µM
C[C@@H]1[C@H](O)[C@@H](C)/C=C/C=C/C=C/C=C/C=C/C=C/C=C/[C@H](O[C@@H]2O[C@H](C)[C@@H](O)[C@H](N)[C@@H]2O)C[C@@H]2O[C@](O)(C[C@@H](O)C[C@@H](O)[C@H](O)CC[C@@H](O)C[C@@H](O)CC(=O)O[C@H]1C)C[C@H](O)[C@H]2C(=O)O | - | resazurin | - | 0.13 µM
COc1ccccc1C1SCCC(=O)N1C(Cc1ccccc1)C(=O)O | - | broth dilution | - | 78.12 µM
COc1ccc(C(Cc2ccc(Cl)cc2)n2ccnc2)cc1 | 28 strains | - | - | <256 µg/mL
CC(=O)Nc1ccc(C(=O)N/N=C/c2ccc(O)cc2)cc1 | ATCC 10231 | broth dilution | - | 1680 µM
COc1ccc(C(Cc2ccc(Cl)cc2)n2cnnc2)cc1 | 28 strains | - | - | <256 µg/mL
Clc1ccc(Oc2ccnc(Oc3ccc(Cl)cc3)n2)cc1 | - | - | - | 14.8 µg/mL
COc1cc(NC(C)CCCNC(=O)[C@@H](CCCCN)NC(=O)[C@H](N)CCCCN)c2ncccc2c1 | - | broth dilution | - | >20 µg/mL
OC[C@H]1CO[C@](Cn2ccnc2)(c2ccc(-c3ccccc3)cc2)O1 | 44 strains | - | - | 64 µg/mL
COc1cc(NC(C)CCCNC(=O)[C@@H](CCCN=C(N)N)NC(=O)[C@H](N)CCCN=C(N)N)c2ncccc2c1 | - | broth dilution | - | >20 µg/mL
COc1cc2ccnc3c2c(c1OC(=O)c1ccc(F)cc1)N(C)C=C3 | - | - | - | >15 µg/mL
C/C=C/c1ccc(OC(=O)/C(C)=C/C)cc1 | ATCC 90028 | - | - | >50 µg/mL
COc1cc2ccnc3c2c(c1OC(=O)c1ccc(C)cc1)N(C)C=C3 | - | - | - | >15 µg/mL
COc1cc(NC(C)CCCNC(=O)CCC(NC(=O)[C@@H](N)CCCCN)C(=O)O)c2nc(C(C)(C)C)ccc2c1 | - | broth dilution | - | >20 µg/mL
CCCCc1ccc(C(=O)Oc2c(OC)cc3ccnc4c3c2N(C)C=C4)cc1 | - | - | - | 3 µg/mL
CC(=O)Nc1ccc(C(=O)N/N=C/c2ccc(N(C)C)cc2)cc1 | ATCC 10231 | broth dilution | - | 770 µM